From patent US12099051B2 (priority 2022, dated 2024)
Values after ≈ are worked out from the molar mass of the structure shown. Read-outs that look alike come from different tables or passages of the source.

Experiments:
[1] = tested on: Caenorhabditis elegans mutant strain Daf-2 (e1370); assay: reproductive ability of mutant strain Daf-2 (e1370); format: in vivo; details: same concentration as N2
[2] = tested on: Caenorhabditis elegans mutant strain Daf-16 (mu86); assay: reproductive ability of mutant strain Daf-16 (mu86); format: in vivo; details: same concentration as N2
[3] = tested on: Caenorhabditis elegans (N2 wild-type)
[4] = tested on: Caenorhabditis elegans (N2 wild-type); details: for body length ratio: 25 μg/mL separate and joint; for EC50: growth and development
[5] = tested on: Caenorhabditis elegans mutant strain Daf-2 (e1370); assay: growth and development of mutant strain Daf-2 (e1370); format: in vivo; details: compared with N2 wild type
[6] = tested on: Caenorhabditis elegans mutant strain Daf-16 (mu86); assay: growth and development of mutant strain Daf-16 (mu86); format: in vivo; details: same concentration as N2
Caenorhabditis elegans = assay: oxidative stress (ROS, DCFH-DA fluorescence) of Caenorhabditis elegans; format: in vivo; details: 48 h exposure

CCC(C)C1NC(=O)/C(=C(/C)O)C1=O (centres unmarked)
spawning rate of Daf-2 mutant strain compared with N2 [1]: no significant difference from N2
spawning rate of Daf-16 mutant strain compared with N2 wild-type [2]: higher spawning rate than the N2 wild-type
spawning rate ([3]; 25 μg/mL separate and joint, 48 h exposure): 70.63%
concentration at which nematode's spawning rate is significantly confined (P<0.001) ([3]; N2 wild-type, compared with blank group, 48 h exposure): 12.5 µg/mL
EC50 ([3]; reproductive capacity, exposing for 48 h): 33.20 µg/mL (≈ 168 µM)
body length ratio ([4]; 48 h exposure): 59.16%
body length ratio ([4]; exposure for 24 h): 57.80%
concentration at which nematode's body length is significantly confined (P<0.001) ([4]; N2 wild-type, compared with blank group): 12.5 µg/mL
EC50 ([4]; exposing for 24 h): 32.42 µg/mL (≈ 164 µM)
EC50 ([4]; exposing for 48 h): 38.30 µg/mL (≈ 194 µM)
effect of Daf-2 gene silencing on developmental toxicity [5]: does not slow down the developmental toxicity
body length ratio of Daf-16 mutant strain compared with N2 wild type [6]: higher body length ratio than the N2 wild type
relative fluorescence intensity ratio (ROS) (Caenorhabditis elegans; 12.5 μg/mL separate and joint): 129.26%
relative fluorescence intensity ratio (ROS) (Caenorhabditis elegans; 25 μg/mL separate and joint): 147.51%
